Measured values published in article PMC11407943, “Cdc14 phosphatases use an intramolecular pseudosubstrate motif to stimulate and regulate catalysis” (The Journal of Biological Chemistry, 2024).

System: C. albicans strains
Assay: Immunoblotting of Cdc14-3xHA expression level

| Molecule | protein expression level compared to WT CaCdc14, CaCdc14^S411E and CaCdc14^hm (log phase YPD cultures, anti-HA immunoblot normalized to PSTAIR, three independent experiments, not statistically significant) | Cdc14 expression level in micafungin-resistant strains (relative to the original micafungin-sensitive isolates) |
| --- | --- | --- |
| CaCdc14^S411A: C. albicans Cdc14 with Ala substitution in the Cdk site, strain HCAL133 (protein, UniProt Q59NH8 1-542, looked up, variant S411A, 3xHA tag) Tyrosine-protein phosphatase …: MHSSSVHVPLIEFLKNRIYLGAYDHHKRDTEDLAYFTVEDALPYNAFYMDFGPLNIGHLYRFAVLLHKKLNEDSTQGKGLVIYSSTSPKERANLACLLCCYMILLQNWAPHQVLQPIAQITPPLQAFRDAGYSSADYEITIQDVVYAMWRAKERGMIDLAKFDLDEYEQYERVDQGDFNVISKDFIAFASPQQSKRGGLNEPFQKVLEYFVENNVQLVVRLNSHLYDAKEFTKRNIKHIDMIFDDGTCPTLEYVQKFIGAAECIINKGGKIAVHCKAGLGRTGCLIGAHLIYTHGFTANECIAYMRMIRPGMVVGPQQHWLYLHHDDFRSWRHTMIVDNRPDPLIGNLFPLCSYEDYKQRLKEAKRKERLQLQQQLTSPLADSSVINTPIRRRKVSGALASKIQTVVPIEAPGQPRKYFEDSEDIDEVEMVNNSDDENTMQDIIQSSPARYDSVTPKTKDNSDWRVLRSISTNNVSSQQSIHIIKTTTTKTVNETLSSPPGTSPTNVLRVSKARSKNRIASGNSQTSRAHSGGVRKLSGKKH | consistently lower | – |
| Cdc14: Cdc14 in micafungin-resistant C. albicans cdc14^S411A and cdc14^S411E colonies (protein, UniProt Q59NH8 1-542, looked up, 3xHA tag) Tyrosine-protein phosphatase …: MHSSSVHVPLIEFLKNRIYLGAYDHHKRDTEDLAYFTVEDALPYNAFYMDFGPLNIGHLYRFAVLLHKKLNEDSTQGKGLVIYSSTSPKERANLACLLCCYMILLQNWAPHQVLQPIAQITPPLQAFRDAGYSSADYEITIQDVVYAMWRAKERGMIDLAKFDLDEYEQYERVDQGDFNVISKDFIAFASPQQSKRGGLNEPFQKVLEYFVENNVQLVVRLNSHLYDAKEFTKRNIKHIDMIFDDGTCPTLEYVQKFIGAAECIINKGGKIAVHCKAGLGRTGCLIGAHLIYTHGFTANECIAYMRMIRPGMVVGPQQHWLYLHHDDFRSWRHTMIVDNRPDPLIGNLFPLCSYEDYKQRLKEAKRKERLQLQQQLTSPLADSSVINTPIRRRKVSGALASKIQTVVPIESPGQPRKYFEDSEDIDEVEMVNNSDDENTMQDIIQSSPARYDSVTPKTKDNSDWRVLRSISTNNVSSQQSIHIIKTTTTKTVNETLSSPPGTSPTNVLRVSKARSKNRIASGNSQTSRAHSGGVRKLSGKKH | – | consistent and significant increase |
